Share of PSTVd loop 6 variants by leaf site

The measurements come from Wu et al. 2024 (doi:10.1371/journal.ppat.1012142).

PSTVd intermediate strain, loop 6: wild type UGACCGCGAG, pool pattern UNNNCGNNNG; upper and lower strand joined, each 5' to 3', the first 5 letters being the upper strand, closing pairs included.

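Three N. benthamiana plants were inoculated with the whole mutant pool. Samples came from the inoculated region at 5 days, the leaf margin at 10 and upper systemic leaves at 12.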

Values are reads per thousand in the sample; higher means more abundant, 0 means not found. Each value is the mean of three plants. "Pool" is the share in the plasmid pool used as inoculum, on the same scale. The inoculated region was read from the minus strand, the other sites from the plus strand. Wild type was 20.7 per thousand in the pool and the most common sequence in every sample (inoculated region 195, 198, 203; leaf margin 629, 591, 734; systemic leaves 942, 870, 868). The authors trace changes outside the varied positions to PCR and sequencing errors or to mutation in the plant; presence does not show that a variant is infectious alone. Samples held 36,220 to 57,551 reads, so the smallest values rest on one or two reads.

| # | sequence | pool | inoculated region | leaf margin | systemic leaves |
|---|---|---|---|---|---|
| 1 | UUCUCGCAAG | 0.144 | 0.132 | 0 | 0 |
| 2 | UGGCCGCUUG | 0.314 | 0.198 | 0.0247 | 0 |
| 3 | UCCCCGCAAG | 0.222 | 0.544 | 0.0548 | 0.0611 |
| 4 | UCUCCGAUCG | 0.288 | 0.0777 | 0.00920 | 0 |
| 5 | UCUUCGUAGG | 0.170 | 0.0899 | 0 | 0 |
| 6 | UAUGCGUCCG | 0.170 | 0.0838 | 0.00773 | 0 |
| 7 | UGGCCGACAG | 0.222 | 0.149 | 0.00920 | 0 |
| 8 | UCUGCGAUCG | 0.248 | 0.101 | 0 | 0 |
| 9 | UCUGCAGCGG | 0.0523 | 0 | 0 | 0 |
| 10 | UUUACGCAUG | 0.105 | 0.101 | 0 | 0 |
| 11 | UUCCCGGUCG | 0.209 | 0.0770 | 0 | 0 |
| 12 | UAAACGCUCG | 0.209 | 0.645 | 0.0746 | 0 |
| 13 | UCCGCGCCUG | 0.183 | 0.0594 | 0.00773 | 0 |
| 14 | UUUCCGUGUG | 0.288 | 0.107 | 0.00773 | 0 |
| 15 | UCUGCGUUUG | 0.275 | 0.0958 | 0.00920 | 0 |
| 16 | UGGACGCAAG | 0.144 | 0.179 | 0 | 0 |
| 17 | UUAACGCCAG | 0.196 | 0.548 | 0.0520 | 0 |
| 18 | UCUCCGUGUG | 0.196 | 0.108 | 0 | 0 |
| 19 | UAGCCUCGAG | 0.0131 | 0.500 | 0.0783 | 0.0401 |
| 20 | UCAUCGUACG | 0.261 | 0.0710 | 0 | 0 |
| 21 | UUGGCGAAUG | 0.484 | 0.113 | 0.00773 | 0 |
| 22 | UGGUCGGCGG | 0.118 | 0.0712 | 0 | 0 |
| 23 | UGCGCGCUUG | 0.209 | 0.0894 | 0 | 0 |
| 24 | UUUCCGUCAG | 0.275 | 0.106 | 0.0232 | 0 |
| 25 | UUGACGUGAG | 0.183 | 0.648 | 0.104 | 0 |
| 26 | UGAGCGGCGG | 0.340 | 0.100 | 0.00773 | 0 |
| 27 | UGCGCGAGUG | 0.105 | 0.0953 | 0.00773 | 0 |
| 28 | UUGUCGCAGG | 0.275 | 0.0954 | 0.00773 | 0 |
| 29 | UACACGUCGG | 0.248 | 0.0844 | 0 | 0 |
| 30 | UCUACGCGGG | 0.222 | 0.0647 | 0.0169 | 0 |
| 31 | UACACGCACG | 0.0654 | 0.594 | 0.0667 | 0 |
| 32 | UAGCCGUAUG | 0.209 | 0.148 | 0.0974 | 0 |
| 33 | UGAUCGAUUG | 0.392 | 0.107 | 0 | 0 |
| 34 | UGACCGAGUG | 0.275 | 0.267 | 0.317 | 0.117 |
| 35 | UCCUCGCUCG | 0.235 | 0.0826 | 0.00773 | 0 |
| 36 | UUCCCGUACG | 0.131 | 0.131 | 0.0169 | 0 |
| 37 | UUGGCGUAGG | 0.431 | 0.101 | 0.00920 | 0 |
| 38 | UCCGCGUACG | 0.275 | 0.101 | 0 | 0 |
| 39 | UGUGCGGAGG | 0.144 | 0.108 | 0.00773 | 0 |
| 40 | UGAACGCGUG | 0.170 | 0.626 | 0.143 | 0.00684 |
| 41 | UAAGCGGGGU | 0.0131 | 0 | 0 | 0 |
| 42 | UUUACACAGG | 0.0131 | 0 | 0 | 0 |
| 43 | UUAACGCGUG | 0.288 | 0.0833 | 0.00920 | 0 |
| 44 | UCACCGUUCG | 0.209 | 0.114 | 0.0571 | 0 |
| 45 | UCAACGCGAU | 0.0131 | 0.0726 | 0.00773 | 0 |
| 46 | UCGUCGGCUG | 0.261 | 0.107 | 0.00920 | 0 |
| 47 | UGUCCGAGCG | 0.183 | 0.154 | 0.00773 | 0 |
| 48 | UAAACGUCAG | 0.196 | 0.553 | 0.0746 | 0.0271 |
| 49 | UCGACGUCGG | 0.288 | 0.107 | 0.00773 | 0 |
| 50 | UUUUCUAUAG | 0.0131 | 0 | 0 | 0 |
| 51 | UAUGCGGGCG | 0.0915 | 0.0591 | 0 | 0 |
| 52 | UAUACGCGAU | 0.0131 | 0.0849 | 0.0431 | 0 |
| 53 | UCAGCGUUAG | 0.353 | 0.0718 | 0.0339 | 0 |

The first 4 entries again:

* UUCUCGCAAG (pool 0.144): inoculated region 0.132; leaf margin 0; systemic leaves 0
* UGGCCGCUUG (pool 0.314): inoculated region 0.198; leaf margin 0.0247; systemic leaves 0
* UCCCCGCAAG (pool 0.222): inoculated region 0.544; leaf margin 0.0548; systemic leaves 0.0611
* UCUCCGAUCG (pool 0.288): inoculated region 0.0777; leaf margin 0.00920; systemic leaves 0